Two molecules from patent US6180388A, “Enzymes and micro organisms with amidase activity which hydrolyze polyamides” (Rhone-Poulenc Fibres et Polymeres S.A., priority 1995, dated 2001) can be followed below.

The series deals with Comamonas acidovorans N 12 and strain PAM I. Kind of series: Enzymatic hydrolysis of adipic acid/HMD oligomers with cells of Comamonas acidovorans N 12 and strain PAM I, analysis of the supernatant. It is filed as cell-based, Comamonas acidovorans; E. coli. To be noted: after 18 hours hydrolysis.

Regarding `O=C(O)CCCCC(=O)O` [ADIPIC ACID, adipic acid], the “molar yield of monomer formed” value was determined as 66%.

As for `NCCCCCCN` [HMD, hexamethylenediamine], the “molar yield of monomer formed” value was found to be 58%.
